This assay has as its system Candida albicans. The experiment in a line: Antifungal activity against Candida albicans isolate 6 assessed as lanosterol/obtusifoliol content in total sterol composition at 0.5 times MIC by GC-MS analysis. It is filed as functional.

Molecules are shown by their SMILES.

As for `OC(Cn1cncn1)(Cn1cncn1)c1ccc(F)cc1F` [FLUCONAZOLE], the Activity amounted to 20.2%.

Values taken from ChEMBL document CHEMBL1687791, “Identification and characterization of four azole-resistant erg3 mutants of Candida albicans” (2010).
